Measured values from several laboratories, pooled; numbers as filed in NIAID ChemDB.

All rows: tests in culture; species: Candida albicans; endpoint: MIC

Rows are shuffled and stem from different studies. Two numbers with a dash give a range or band. Blank or dashed fields: not listed here.

structure,strain or isolate,result
CCCCCCCCCCCCCCCC1=N[C@H]1C(=O)OC,ATCC 14503,14–15 µg/mL
Clc1ccc(/C=C\C2=NCCS2)c(Cl)c1,-,5 µg/mL
CC1(c2ccc(Cl)cc2)OCC(CO/N=C(\Cn2ccnc2)c2ccc(Cl)cc2Cl)O1,-,≤10 µg/mL
Clc1ccc(Nc2n[nH]c(CCn3cnc4ccccc43)n2)cc1,-,500 µg/mL
c1ccc(CO/N=C2\c3ccccc3OCC2n2cnnc2)cc1,ATCC 10231,64 µg/mL
C=CC(C)(C)c1[nH]c2ccccc2c1/C=c1\[nH]c(=O)c2cccn2c1=O,SC5314,>100 µg/mL
C(=C/c1ccco1)/C1=NCCS1,-,58 µg/mL
Clc1ccc(CO/N=C2/c3ccccc3OCC2n2cncn2)cc1Cl,ATCC 10231,>64 µg/mL
C=C1[C@@H](C)CC[C@@]2(C)[C@H]1CC=C1COC(=O)[C@@]12O,B311,50 µg/mL
CCCCCCCCCCCCC/C=C\C1=N[C@H]1C(=O)OC,UCD-FR1,8 µg/mL
CC[C@H](C)[C@H](NC(=O)[C@H](Cc1cnc[nH]1)NC(=O)COc1cc(=O)oc2ccccc12)C(=O)OC,-,6.25 µg/mL
O=C(N/N=C/c1ccc(Cl)cc1)c1cc(-c2ccc(Br)cc2)nc2ccccc12,ATCC 10231,50–100 µg/mL
C(=C\c1ccccc1)/CN1CCN(C(c2ccccc2)c2ccccc2)CC1,66 strains,413 µg/mL
COC(=O)[C@@H](Cc1ccccc1)NC(=O)CNC(=O)[C@H](Cc1ccccc1)NC(=O)c1ccccc1-c1cnc(C)[nH]1,-,12.5 µg/mL
C(=C/c1cccnc1)/C1=NCCS1,-,11 µg/mL
Cc1c(O)cccc1C(=O)N[C@@H](CSc1ccccc1)[C@H](O)CN1C[C@H]2CCCC[C@H]2C[C@H]1C(=O)NC(C)(C)C,I74A,>64 µg/mL
CC(=O)N1CCN(c2ccc(OC[C@H]3CO[C@](Cn4ccnc4)(c4ccc(Cl)cc4Cl)O3)cc2)CC1,-,500 µg/mL
CC1(c2ccccc2Cl)OCC(CO/N=C(\Cn2ccnc2)c2ccc(Cl)cc2Cl)O1,-,≤10 µg/mL
NCc1ccc(S(N)(=O)=O)cc1,C316,>100 µg/mL
CC1(c2ccc(Cl)cc2)OCC(CO/N=C(\Cn2ccnc2)c2ccc(Cl)cc2)O1,-,≤10 µg/mL
O=C(c1ccc2c(c1)oc(=O)n2CC1=NCCS1)c1ccccc1F,-,75 µg/mL
Cc1ccc(S(=O)(=O)NC(=O)Nc2ccc(S(=O)(=O)Nc3nnc(S(N)(=O)=O)s3)cc2)cc1,C316,84 µg/mL
Cc1ccc(C(C)C)cc1O,ATCC 10231,0.16 µg/mL
c1ccc(Nc2n[nH]c(CCn3cnc4ccccc43)n2)cc1,-,500 µg/mL
C=CC(C)(C)c1[nH]c2ccccc2c1/C=C1\NC(=O)C2(O)C(O)CCN2C1=O,SC5314,>100 µg/mL
O=C(c1cccc(Cl)c1)c1ccc2c(c1)oc(=O)n2CC1=NCCS1,-,25 µg/mL
Fc1ccc(CC(Cc2ccc(-c3ccccc3)cc2)n2ccnc2)cc1,-,5.5 µM
COCCOC(=O)C1=C(C)NC(C)=C(C(=O)OC(C)C)C1c1cccc([N+](=O)[O-])c1,66 strains,486 µg/mL
C=CC(C)(C)c1[nH]c2ccccc2c1/C=c1\[nH]c(=O)c2n(c1=O)CCC=2C1=c2c(=O)[nH]/c(=C\c3c(C(C)(C)C=C)[nH]c4ccccc34)c(=O)n2CC1,SC5314,>100 µg/mL
C[C@H]1CC[C@@]2(C)[C@@H](CC=C3CO[C@@H](O)[C@@]32O)C12CO2,B311,50 µg/mL
O=C(N/N=C/c1ccc(Br)cc1)c1cc(-c2ccc(Br)cc2)nc2ccccc12,ATCC 10231,100–200 µg/mL
CC1(c2ccc(Cl)cc2Cl)OCC(CO/N=C(\Cn2ccnc2)c2ccc(Cl)cc2Cl)O1,-,≤10 µg/mL
C(=C/c1ccccc1)/C1=NCCS1,-,3 µg/mL
Cn1ccnc1S(C)=O,-,>200 µg/mL
O=C(c1cccc(F)c1)c1ccc2c(c1)oc(=O)n2CC1=NCCS1,-,100 µg/mL
C[C@H]1[C@H](O)[C@@H](C)/C=C/C=C/C=C/C=C/C=C/C=C/C=C/[C@H](O[C@@H]2O[C@H](C)[C@@H](O)[C@H](N)[C@@H]2O)C[C@@H]2O[C@](O)(C[C@@H](O)C[C@@H](O)CC[C@H](O)[C@@H](O)C[C@@H](O)CC(=O)O[C@H]1C)C[C@H](O)[C@H]2C(=O)O,SGY-243,0.015 µg/mL
O=C(N/N=C/c1ccccc1[N+](=O)[O-])c1cc(-c2ccc(Br)cc2)nc2ccc(Cl)cc12,ATCC 10231,50–100 µg/mL
Cn1c([N+](=O)[O-])cnc1N,-,>200 µg/mL
COC(=O)c1cc(O)cc(OC)c1Oc1cc(C)cc(OC)c1C(N)=O,-,6.2 µg/mL
CSc1ncc([N+](=O)[O-])n1C,-,>200 µg/mL
Clc1ccc(CO/N=C2\c3ccccc3OCC2n2cncn2)cc1Cl,ATCC 10231,16 µg/mL
Cc1ccc(Nc2n[nH]c(CCn3cc([N+](=O)[O-])nc3C)n2)cc1,-,500 µg/mL
c1ccc(CC(Cc2ccc(-c3ccccc3)cc2)n2ccnc2)cc1,-,1.6 µM
CCC(C)n1ncn(-c2ccc(N3CCN(c4ccc(OC[C@@H]5CO[C@@](Cn6cncn6)(c6ccc(F)cc6F)C5)cc4)CC3)cc2)c1=O,C-43,0.0039 µg/mL
O=S1c2ccccc2SN1C1CC1,38247,50 µg/mL
CC1OC(O[C@@]2(C)CC(=O)[C@]3(O)C4=C(C=C[C@]3(O)C2)C(=O)c2c(ccc(C3CCC(OC5CCC(O)C(C)O5)C(C)O3)c2O)C4=O)C=CC1=O,6 strains,95 µg/mL
CCCCCCCCCCCCC/C=C/C1=N[C@H]1C(=O)OC,96-489,>64 µg/mL
COc1ccc(-c2cc(C(=O)N/N=C/c3ccc(Br)cc3)c3cc(Cl)ccc3n2)cc1,ATCC 10231,25–50 µg/mL
Fc1ccc(CCCCn2c3c(c4cc(F)ccc42)CNCC3)cc1,579A,1.25 µg/mL
O=C(N/N=C/c1ccc(Cl)cc1)c1cc(-c2ccccc2)nc2ccc(Cl)cc12,ATCC 10231,50–100 µg/mL
C(=C/c1ccccn1)/C1=NCCS1,-,5 µg/mL
C[C@@H](c1ncncc1F)[C@](O)(Cn1cncn1)c1ccc(F)cc1F,OY-12-99 (fluconazole-resistant),4 µg/mL
OC(c1cc(-c2ccc(-c3ccccc3)cc2)nc2ccccc12)C1CCCCN1,ATCC 90028,3.1 µg/mL
O=C(N/N=C/c1ccc([N+](=O)[O-])cc1)c1cc(-c2ccc(Br)cc2)nc2ccc(Cl)cc12,ATCC 10231,50 µg/mL
CC[C@H](C)n1ncn(-c2ccc(N3CCN(c4ccc(OC[C@H]5CO[C@](Cn6cncn6)(c6ccc(F)cc6F)C5)cc4)CC3)cc2)c1=O,C-43,0.0625 µg/mL
CC(C)(C)c1ccc(CC(Cc2ccc(-c3ccccc3)cc2)n2ccnc2)cc1,-,66.5 µM
COC(=O)[C@H](Cc1ccc(O)cc1)NC(=O)COc1cc(=O)oc2ccccc12,-,12.5 µg/mL
Cn1cc[nH]c1=S,-,>200 µg/mL
COc1ccc(-c2cc(C(=O)N/N=C/c3ccc(Cl)cc3)c3cc(Cl)ccc3n2)cc1,ATCC 10231,50 µg/mL
Cc1nc([N+](=O)[O-])cn1CCc1nc(Nc2ccc(Cl)cc2)n[nH]1,-,500 µg/mL
Clc1ccc(/C(Cn2ccnc2)=N/OCC2COC(Cn3cncn3)(c3ccc(Cl)cc3Cl)O2)c(Cl)c1,-,≤5 µg/mL
C[C@H]1[C@H](O)[C@@H](C)/C=C/C=C/C=C/C=C/C=C/C=C/C=C/[C@H](O[C@@H]2O[C@H](C)[C@@H](O)[C@H](N)[C@@H]2O)C[C@@H]2O[C@](O)(C[C@@H](O)C[C@@H](O)CC[C@H](O)[C@@H](O)C[C@@H](O)CC(=O)O[C@H]1C)C[C@H](O)[C@H]2C(=O)O,Isolate 5,0.5 µg/mL
COC(=O)[C@H](C)NC(=O)[C@H](Cc1c[nH]c2ccccc12)NC(=O)c1ccccc1-c1cnc(C)[nH]1,-,6.25 µg/mL

8 of the rows above, restated:

structure	strain or isolate	result
O=C(N/N=C/c1ccc([N+](=O)[O-])cc1)c1cc(-c2ccc(Br)cc2)nc2ccc(Cl)cc12	ATCC 10231	50 µg/mL
CC[C@H](C)[C@H](NC(=O)[C@H](Cc1cnc[nH]1)NC(=O)COc1cc(=O)oc2ccccc12)C(=O)OC	-	6.25 µg/mL
COc1ccc(-c2cc(C(=O)N/N=C/c3ccc(Cl)cc3)c3cc(Cl)ccc3n2)cc1	ATCC 10231	50 µg/mL
Clc1ccc(/C(Cn2ccnc2)=N/OCC2COC(Cn3cncn3)(c3ccc(Cl)cc3Cl)O2)c(Cl)c1	-	≤5 µg/mL
C(=C/c1ccccn1)/C1=NCCS1	-	5 µg/mL
CCCCCCCCCCCCCCCC1=N[C@H]1C(=O)OC	ATCC 14503	14–15 µg/mL
C(=C/c1ccccc1)/C1=NCCS1	-	3 µg/mL
Cc1nc([N+](=O)[O-])cn1CCc1nc(Nc2ccc(Cl)cc2)n[nH]1	-	500 µg/mL